Anti-infective test results gathered from many reports (values: NIAID ChemDB through PubChem).

Shared fields: whole-cell or culture tests

ECn is the concentration giving n% inhibition of infection, replication or growth. Neighbouring rows are from separate reports. Blank or dashed fields: not listed here. Percent inhibition refers to the dose given; in toxicity tests it is the harm to the cells.

structure	cells	tested at	agent	read-out	method	strain or isolate	value
O=S(=O)(O)CO	Human embryonic lung cells	5 µg/mL	Rhinovirus	inhibition	cytopathic effect	-	0%
Nc1ccc(Cn2cnc3c(Nc4cccc(F)c4)nc(C(F)(F)F)nc32)cc1	M-HELA	-	Rhinovirus	EC50	plaque count	Serotype 4	19 µM
CCC1C(c2ccccc2)OC(c2ccccc2)CC12NNC(=S)N2	-	-	Rhizopus spp.	MIC	-	-	100 µg/mL
O=C(Nc1ccc2c(O)c(N=Nc3ccc(N=Nc4ccc(S(=O)(=O)O)cc4)cc3)c(S(=O)(=O)O)cc2c1)c1ccccc1	Human embryonic lung cells	50 µg/mL	Rhinovirus	inhibition	cytopathic effect	-	100%
CSc1nsc(-c2ccc(OCCCOc3ccc(C#N)cc3)cc2)c1C#N	HELA-OHIO	-	Rhinovirus	EC50	cytopathic effect	Serotype 9 (group B)	>2 µM
CCC1C(c2ccccc2)OC(c2ccccc2)CC12NC(=S)NN2c1ccccc1	-	-	Rhizopus spp.	MIC	-	-	12.5 µg/mL
CSc1nsc(-c2ccc(OCCCCOc3ccc(C#N)cc3)cc2)c1C#N	HELA-OHIO	-	Rhinovirus	EC50	cytopathic effect	Serotype 59 (group B)	>2 µM
O=S(=O)(O)c1cccc2c(O)cccc12	Human amnion AV3 cells	50 µg/mL	Rhinovirus	inhibition	cytopathic effect	-	0%
S=C1NN(c2ccccc2)C2(CC(c3ccccc3)OC(c3ccccc3)C2)N1	-	-	Rhizopus spp.	MIC	-	-	12.5 µg/mL
Fc1cccc(Cn2cnc3c(Nc4cccc(F)c4)nc(C(F)(F)F)nc32)c1	M-HELA	-	Rhinovirus	EC50	plaque count	Serotype 22	2.3 µM
Cc1cc(CCCOc2c(C)cc(-c3noc(C(F)(F)F)n3)cc2C)on1	OHIO HELA-I	-	Rhinovirus	EC50	cytopathic effect / visual reading	Isolate 45	>10 µg/mL
O=S(=O)([O-])c1ccc(O)cc1	Human embryonic lung cells	10 µg/mL	Rhinovirus	inhibition	cytopathic effect	-	0%
CSc1nsc(-c2ccc(OCCOc3ccccc3)cc2)c1C#N	HELA-OHIO	-	Rhinovirus	EC50	cytopathic effect	Serotype 2 (group B)	>20 µM
O=[N+]([O-])c1ccc(Cn2cnc3c(Nc4cccc(F)c4)nc(C(F)(F)F)nc32)cc1	M-HELA	-	Rhinovirus	EC50	plaque count	Serotype 5	>100 µM
COc1cc(-c2ccc(N=Nc3ccc4c(S(=O)(=O)O)cc(S(=O)(=O)O)c(N)c4c3O)c(OC)c2)ccc1N=Nc1ccc2c(S(=O)(=O)O)cc(S(=O)(=O)O)c(N)c2c1O	Human amnion AV3 cells	10 µg/mL	Rhinovirus	inhibition	cytopathic effect	-	0%
CSc1nsc(-c2ccc(OCCCOc3ccc([N+](=O)[O-])cc3)cc2)c1C#N	HELA-OHIO	-	Rhinovirus	EC50	cytopathic effect	Serotype 63 (group B)	>1 µM
CCO/N=C/c1ccc(OCCC2CCN(c3ccc(Cl)nn3)CC2)cc1	KB	-	Rhinovirus	EC50	neutral red	K6579 (ICAM-1 receptor group 100)	0.026 µM
O=C(Nc1cc(S(=O)(=O)[O-])cc2cc(S(=O)(=O)[O-])ccc12)c1ccccc1	Human amnion AV3 cells	5 µg/mL	Rhinovirus	inhibition	cytopathic effect	-	0%